# Where two headings read alike, the source gives them in different places.
# Sequences of proteins named here, by UniProt entry; tags and fusion partners are left off.
# UniProt O15393, whole entry: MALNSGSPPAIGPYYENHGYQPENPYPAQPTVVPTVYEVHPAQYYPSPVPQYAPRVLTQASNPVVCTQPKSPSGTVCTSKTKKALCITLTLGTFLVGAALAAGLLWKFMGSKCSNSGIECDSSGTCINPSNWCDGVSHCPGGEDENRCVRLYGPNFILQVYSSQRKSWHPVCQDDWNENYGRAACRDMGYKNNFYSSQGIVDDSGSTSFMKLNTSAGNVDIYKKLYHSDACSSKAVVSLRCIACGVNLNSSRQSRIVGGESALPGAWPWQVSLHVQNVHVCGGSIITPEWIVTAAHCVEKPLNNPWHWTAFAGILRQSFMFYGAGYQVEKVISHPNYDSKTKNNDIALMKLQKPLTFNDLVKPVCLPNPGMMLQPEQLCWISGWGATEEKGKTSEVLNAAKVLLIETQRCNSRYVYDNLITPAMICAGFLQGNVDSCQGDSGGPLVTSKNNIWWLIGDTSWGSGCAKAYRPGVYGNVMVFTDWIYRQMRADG
# How the values were obtained:
# [1] = test system: lentiviral pseudoparticles carrying SARS-CoV-2 Wuhan-Hu-1 spike, Caco-2 cells; assay: Pseudovirus inhibition assay, wild-type (Wuhan-Hu-1) spike; conditions: for SARS-CoV-2 spike driven entry, Mean (0 nM = 100): Fig. 5a, Wuhan-Hu-1 spike pseudoparticles
# [2] = test system: lentiviral pseudoparticles carrying SARS-CoV-2 Omicron BA.1 (B.1.1.529) spike, Caco-2 cells; assay: Pseudovirus inhibition assay, Omicron BA.1 spike; conditions: for SARS-CoV-2 spike driven entry, Mean (0 nM = 100): Fig. 5e, Omicron BA.1 spike pseudoparticles
# TMPRSS2 = TMPRSS2 (Homo sapiens, UniProt O15393); conditions: for TMPRSS2 activity, Mean (Fig. 2a): normalized, 0 nM = 100
# [3] = test system: SARS-CoV-2 Wuhan-Hu-1, Caco-2 cells; assay: SARS-CoV-2 inhibition assay, Wuhan-Hu-1 (in-cell ELISA); conditions: for SARS-CoV-2 infection, Mean (0 nM = 100): Fig. 6a, Wuhan-Hu-1; for IC50: read-out: IC50 SARS-CoV-2 Wuhan-Hu-1, Caco-2 cells
# [4] = test system: SARS-CoV-2 Alpha (B.1.1.7), Caco-2 cells; assay: SARS-CoV-2 inhibition assay, VOC Alpha (in-cell ELISA); conditions: for SARS-CoV-2 infection, Mean (0 nM = 100): Fig. 6c, VOC Alpha
# [5] = molecular target: TMPRSS2 expressed in HEK293T cells (Homo sapiens, UniProt O15393); assay: Inhibition of cellular TMPRSS2 activity on HEK293T cells transiently expressing TMPRSS2; assay type: cell-based; conditions: 2 h; for normalized fluorescence intensity, HEK293T TMPRSS2, Mean (Fig. 4b): corrected for mock-transfected cells
# [6] = molecular target: cellular TMPRSS2 activity, Caco-2 cells (Homo sapiens, UniProt O15393); conditions: normalized, 0 nM = 100
structure (smiles),measurement,setting,value
CC(=O)N[C@@H](Cc1c[nH]cn1)C(=O)N1CCC[C@H]1C(=O)NC(CCCNC(=N)N)C(=O)c1nc2ccccc2s1 (stereo partly shown),"SARS-CoV-2 spike driven entry, Mean (0 nM = 100)",[1]; compound 32 nM,102.325
same,"SARS-CoV-2 spike driven entry, Mean (0 nM = 100)",[1]; compound 160 nM,88.717
same,"SARS-CoV-2 spike driven entry, Mean (0 nM = 100)",[1]; compound 800 nM,68.7115
same,"SARS-CoV-2 spike driven entry, Mean (0 nM = 100)",[1]; compound 4000 nM,16.6
same,"SARS-CoV-2 spike driven entry, Mean (0 nM = 100)",[1]; compound 20000 nM,2.541
same,"SARS-CoV-2 spike driven entry, Mean (0 nM = 100)",[1]; compound 100000 nM,3.21
same,IC50,"[1]; read-out: IC50 pseudotyped lentivirus Wuhan-Hu-1, Caco-2 cells, luciferase 2 days post transduction",1.32 µM
same,"SARS-CoV-2 spike driven entry, Mean (0 nM = 100)",[2]; compound 3.2 nM,97.4758
same,"SARS-CoV-2 spike driven entry, Mean (0 nM = 100)",[2]; compound 16 nM,88.0896
same,"SARS-CoV-2 spike driven entry, Mean (0 nM = 100)",[2]; compound 80 nM,76.0004
same,"SARS-CoV-2 spike driven entry, Mean (0 nM = 100)",[2]; compound 400 nM,46.5624
same,"SARS-CoV-2 spike driven entry, Mean (0 nM = 100)",[2]; compound 2000 nM,21.5607
same,"SARS-CoV-2 spike driven entry, Mean (0 nM = 100)",[2]; compound 10000 nM,5.826
same,"SARS-CoV-2 spike driven entry, Mean (0 nM = 100)",[2]; compound 50000 nM,3.492
same,IC50,"[2]; read-out: IC50 pseudotyped lentivirus Omicron BA.1, Caco-2 cells, luciferase 2 days post transduction",0.339 µM
same,"TMPRSS2 activity, Mean (Fig. 2a)",TMPRSS2; 0.05 nM,97.5
same,"TMPRSS2 activity, Mean (Fig. 2a)",TMPRSS2; 0.5 nM,100
same,"TMPRSS2 activity, Mean (Fig. 2a)",TMPRSS2; 5 nM,79.4231
same,"TMPRSS2 activity, Mean (Fig. 2a)",TMPRSS2; 50 nM,29.0385
same,"TMPRSS2 activity, Mean (Fig. 2a)",TMPRSS2; 500 nM,2.885
same,"TMPRSS2 activity, Mean (Fig. 2a)",TMPRSS2; 5000 nM,0.7692
same,"TMPRSS2 activity, Mean (Fig. 2a)",TMPRSS2; 50000 nM,0.3846
same,"TMPRSS2 activity, Mean (Fig. 2a)",TMPRSS2; 500000 nM,0
same,Ki,"TMPRSS2; read-out: Ki TMPRSS2, 30 min preincubation, substrate Boc-Gln-Ala-Arg-AMC, Ki from IC50 by Cheng–Prusoff",0.0085 µM
same,"SARS-CoV-2 infection, Mean (0 nM = 100)",[3]; compound 32 nM,100.452
same,"SARS-CoV-2 infection, Mean (0 nM = 100)",[3]; compound 160 nM,100.529
same,"SARS-CoV-2 infection, Mean (0 nM = 100)",[3]; compound 800 nM,106.01
same,"SARS-CoV-2 infection, Mean (0 nM = 100)",[3]; compound 4000 nM,60.732
same,"SARS-CoV-2 infection, Mean (0 nM = 100)",[3]; compound 20000 nM,15.3086
same,"SARS-CoV-2 infection, Mean (0 nM = 100)",[3]; compound 100000 nM,-2.169
same,IC50,[3]; 2 days post infection,5.7 µM
same,IC50,[3]; in-cell ELISA 2 days post infection,5.67 µM
same,"SARS-CoV-2 infection, Mean (0 nM = 100)",[4]; compound 32 nM,97.9558
same,"SARS-CoV-2 infection, Mean (0 nM = 100)",[4]; compound 160 nM,100.192
same,"SARS-CoV-2 infection, Mean (0 nM = 100)",[4]; compound 800 nM,104.696
same,"SARS-CoV-2 infection, Mean (0 nM = 100)",[4]; compound 4000 nM,113.063
same,"SARS-CoV-2 infection, Mean (0 nM = 100)",[4]; compound 20000 nM,2.3474
same,"SARS-CoV-2 infection, Mean (0 nM = 100)",[4]; compound 100000 nM,-2.466
same,IC50,"[4]; read-out: IC50 SARS-CoV-2 Alpha, Caco-2 cells, in-cell ELISA 2 days post infection",20 µM
same,"normalized fluorescence intensity, HEK293T TMPRSS2, Mean (Fig. 4b)",[5]; 0.5 nM,62.045
same,"normalized fluorescence intensity, HEK293T TMPRSS2, Mean (Fig. 4b)",[5]; 5 nM,61.69
same,"normalized fluorescence intensity, HEK293T TMPRSS2, Mean (Fig. 4b)",[5]; 50 nM,47.875
same,"normalized fluorescence intensity, HEK293T TMPRSS2, Mean (Fig. 4b)",[5]; 500 nM,22.78
same,"normalized fluorescence intensity, HEK293T TMPRSS2, Mean (Fig. 4b)",[5]; 5000 nM,3.58
same,"normalized fluorescence intensity, HEK293T TMPRSS2, Mean (Fig. 4b)",[5]; 50000 nM,-2.08
same,IC50,"[5]; read-out: IC50 HEK293T TMPRSS2, corrected for mock-transfected HEK293T cells",0.0133 µM
same,"cellular protease activity on Caco-2 cells, Mean (Fig. 4a)",[6]; 0.1 nM,84.1146
same,"cellular protease activity on Caco-2 cells, Mean (Fig. 4a)",[6]; 1 nM,93.75
same,"cellular protease activity on Caco-2 cells, Mean (Fig. 4a)",[6]; 10 nM,77.3438
